Data taken from US20240109955A1 (published 2024).
Positions count from the first letter of the chain named.

B1: MX837 (other)
chain 1: QTVVTQEPSFSVSPGGTVTLTCGLSSGSVSTAYFPSWYQQTPGQAPRTLIYGTNTRSSGVPDRFSGSILGNKAALTITGAQADDESDYYCVLYMGRGIVVFGGGTKLTVLGGSSGEIVLTQSPGTLSLSPGERATLSCRASQSVSSSYLAWYQQKPGQAPRLLIYSASSRATGIPDRFSGSGSGTDFTLTISRLEPEDFAVYFCQQYVGLTGWTFGQGTKVEIKGGGGSGGSGSGGGGSASGSGQMQLVQSGPEVKKPGTSVKVSCKASGFTFTSSAVQWVRQRQRLEWIGWIVVGSGNTNYAQKFQERVTITRDMSTSTAYMELSSLRSEDTAVYYCAAPNCSNVVCYDGFDIWGQGTMVTVSSGGSSGQVQLVESGGGVVQPGRSLRLSCAASGFTLSSYGMHWVRQAPGKGLEWVAVISYDGSNKYYVDSVKGRFTISRDNSKNTLYLQMNSLRAEDTAVYYCRWAYWELLPDYYYGMDVWGQGTTVTVSSASGGSGDKTHTCPPCPAPELLGGPSVFLFPPKPKDTLMISRTPEVTCVVVDVSHEDPEVKFNWYVDGVEVHNAKTKPREEQYNSYVVSVLTVLHQDWLNGKEYKCKVSNKALPAPIEKTISKAKGQPREPQVYTLPPCRDELTKNQVSLWCLVKGFYPSDIAVEWESNGQPENNYKTTPPVLDSDGSFFKKLTVDKSRWQQGNVFSCSVLHEALHSHYTQKSLSLSPG
chain 2: DIQMTQSPSSVSASVGDRVIITCRASQGISSWLAWYQQKPGKAPKVLIYDASSLQSGVPSRFSGSGYGTDFTLTISSLQPEDSATYYCQQAKSFPITFGQGTRLEIKGGSSGEIVLTQSPGTLSLSPGERATLSCRASQSVSSSYLAWYQQKPGQAPRLLIYSASSRATGIPDRFSGSGSGTDFTLTISRLEPEDFAVYFCQQYVGLTGWTFGQGTKVEIKGGGGSGGSGSGGGGSASGSGQMQLVQSGPEVKKPGTSVKVSCKASGFTFTSSAVQWVRQRQRLEWIGWIVVGSGNTNYAQKFQERVTITRDMSTSTAYMELSSLRSEDTAVYYCAAPNCSNVVCYDGFDIWGQGTMVTVSSGGSSGQVQLVESGGGVVQPGRSLRLSCAASGFTFSSYAFHWVRQAPGKGLEWVAVISYDGSNQYYADSVKGRFTISRDNSKNTLYLQMNSLRADDTAVYYCARDLAIAVAGTWHYYNGMDVWGQGTTVTVSSASGGSGDKTHTCPPCPAPELLGGPSVFLFPPKPKDTLMISRTPEVTCVVVDVSHEDPEVKFNWYVDGVEVHNAKTKPREEQYNSYVVSVLTVLHQDWLNGKEYKCKVSNKALPAPIEKTISKAKGQPREPQVCTLPPSRDELTKNQVSLSCAVKGFYPSDIAVEWESNGQPENNYKTTPPVLDSDGSFFLVSKLTVDKSRWQQGNVFSCSVLHEALHSHYTQKSLSLSPG
B2: MX835 (other)
chain 1: B1 chain 1 with V208G
chain 2: EIVLTQSPGTLSLSPGERATLSCRASQSVSSSYLAWYQQKPGQAPRLLIYSASSRATGIPDRFSGSGSGTDFTLTISRLEPEDFAVYFCQQYGGLTGWTFGQGTKVEIKGGSSGDIQMTQSPSSVSASVGDRVIITCRASQGISSWLAWYQQKPGKAPKVLIYDASSLQSGVPSRFSGSGYGTDFTLTISSLQPEDSATYYCQQAKSFPITFGQGTRLEIKGGGGSGGSGSGGGGSASGSGQVQLVESGGGVVQPGRSLRLSCAASGFTFSSYAFHWVRQAPGKGLEWVAVISYDGSNQYYADSVKGRFTISRDNSKNTLYLQMNSLRADDTAVYYCARDLAIAVAGTWHYYNGMDVWGQGTTVTVSSGGSSGQMQLVQSGPEVKKPGTSVKVSCKASGFTFTSSAVQWVRQRQRLEWIGWIVVGSGNTNYAQKFQERVTITRDMSTSTAYMELSSLRSEDTAVYYCAAPNCSNVVCYDGFDIWGQGTMVTVSSASGGSGDKTHTCPPCPAPELLGGPSVFLFPPKPKDTLMISRTPEVTCVVVDVSHEDPEVKFNWYVDGVEVHNAKTKPREEQYNSYVVSVLTVLHQDWLNGKEYKCKVSNKALPAPIEKTISKAKGQPREPQVCTLPPSRDELTKNQVSLSCAVKGFYPSDIAVEWESNGQPENNYKTTPPVLDSDGSFFLVSKLTVDKSRWQQGNVFSCSVLHEALHSHYTQKSLSLSPG
B3: MX838 (other)
chain 1: B1 chain 1 with V208G
chain 2: B1 chain 2 with V205G
B4: MX828 + 829 (other)
chain 1: B1 chain 1 with C632S, W644T
chain 2: DIQMTQSPSSVSASVGDRVIITCRASQGISSWLAWYQQKPGKAPKVLIYDASSLQSGVPSRFSGSGYGTDFTLTISSLQPEDSATYYCQQAKSFPITFGQGTRLEIKGGSSGEIVLTQSPGTLSLSPGERATLSCRASQSVSSSYLAWYQQKPGQAPRLLIYSASSRATGIPDRFSGSGSGTDFTLTISRLEPEDFAVYFCQQYVGLTGWTFGQGTKVEIKGGGGSGGSGSGGGGSASGSGQMQLVQSGPEVKKPGTSVKVSCKASGFTFTSSAVQWVRQRQRLEWIGWIVVGSGNTNYAQKFQERVTITRDMSTSTAYMELSSLRSEDTAVYYCAAPNCSNVVCYDGFDIWGQGTMVTVSSGGSSGQVQLVESGGGVVQPGRSLRLSCAASGFTFSSYAFHWVRQAPGKGLEWVAVISYDGSNQYYADSVKGRFTISRDNSKNTLYLQMNSLRADDTAVYYCARDLAIAVAGTWHYYNGMDVWGQGTTVTVSSASGGSGDKTHTCPPCPAPELLGGPSVFLFPPKPKDTLMISRTPEVTCVVVDVSHEDPEVKFNWYVDGVEVHNAKTKPREEQYNSYVVSVLTVLHQDWLNGKEYKCKVSNKALPAPIEKTISKAKGQPREPQVYTLPPSRDELTKNQVSLTCLVKGFYPSDIAVEWESNGQPENNYKTTPPVLDSDGSFFKKLTVDKSRWQQGNVFSCSVLHEALHSHYTQKSLSLSPG
B5: MX830 (bispecific antibody)
chain: B1 chain 1 with V208G, C632S, W644T
B6: MX831 (bispecific antibody)
chain: B4 chain 2 with V205G
B7: MX830 + 831 (other)
chain 1: B1 chain 1 with V208G, C632S, W644T
chain 2: B4 chain 2 with V205G
B8: A23-58.1HC/58.1LC_93VGLTG (antibody, V domains shown)
VH: QMQLVQSGPEVKKPGTSVKVSCKASGFTFTSSAVQWVRQRQRLEWIGWIVVGSGNTNYAQKFQERVTITRDMSTSTAYMELSSLRSEDTAVYYCAAPNCSNVVCYDGFDIWGQGTMVTVSS
VL: EIVLTQSPGTLSLSPGERATLSCRASQSVSSSYLAWYQQKPGQAPRLLIYSASSRATGIPDRFSGSGSGTDFTLTISRLEPEDFAVYFCQQYVGLTGWTFGQGTKVEIK

Target: SARS-CoV-2 spike protein, Omicron sublineage BA.2.75.2 (R346T, F486S) (SARS-CoV-2, UniProt P0DTC2)
Experiment: cell-based or functional assay

Question: Which results are given for B1?
Answer: IC50, pseudovirus neutralization: > 10000 nM; IC80, pseudovirus neutralization: > 10000 nM

Question: What does the source list for B2?
Answer: IC50, pseudovirus neutralization: > 10000 nM; IC80, pseudovirus neutralization: > 10000 nM

Question: B3 was tested. Which “IC50, pseudovirus neutralization” value did it give?
Answer: The value was > 10000 nM.

Question: And the “IC80, pseudovirus neutralization” value?
Answer: The value was > 10000 nM.

Target: SARS-CoV-2 spike protein, D614G mutant (SARS-CoV-2, UniProt P0DTC2 14-1273)
Experiment: cell-based or functional assay

Question: B4 was tested. Which “IC50, pseudovirus neutralization” value did it give?
Answer: The value was 3 nM.

Question: And the “IC80, pseudovirus neutralization” value?
Answer: Its value is 4 nM.

Question: Which “IC50, pseudovirus neutralization” value does the source give for B5 here?
Answer: The value was 5 nM.

Question: B6 was tested. Which “IC50, pseudovirus neutralization” value did it give?
Answer: Its value is 3 nM.

Question: What does the source list for B7?
Answer: IC50, pseudovirus neutralization: 2 nM; IC80, pseudovirus neutralization: 4 nM

Question: For B8, which “IC50, pseudovirus neutralization” value is on record?
Answer: The value was 0 nM.

Question: What about the “IC80, pseudovirus neutralization” value of the same binder?
Answer: Its value is 2 nM.
